Reference: patent publication US5753610A, “Perfume containing (6E) -2,3-dihydrofarnesol” (Takasago International Corporation, priority 1995, dated 1998)

Assay: Evaluation of fragrance qualities by seven skilled panelists
In the case of CC(C)=CCC/C(C)=C/CC[C@H](C)CCO [(d), (3S)-(6E)-2,3-dihydrofarnesol], the fragrance qualities is reported as “somewhat stronger than that of the compound (a) and long-lasting, clean, graceful and floral similar to cyclamen”. With CC(C)=CCC/C(C)=C/CCC(C)CCO (centres unmarked) [(a), (6E)-2,3-dihydrofarnesol] the “perfume value / usability as cyclamen-like floral perfume” value (“perfume value / usability” below) was “highly useful as a cyclamen-like floral perfume”. For CC(C)=CCC/C(C)=C/CCC(C)CCO (centres unmarked) [(b), (6E)-2,3-dihydrofarnesol], the fragrance qualities was “somewhat inferior to the compound (a) in the floral feel, fragrance intensity and richness” and the “perfume value / usability” value was “usable as a cyclamen-like floral perfume”. With CC(C)=CCC/C(C)=C/CCC(C)CCO (centres unmarked) [(c), 2,3-dihydrofarnesol] the fragrance qualities was “metallic, woody and green fragrance with a poor floral feel” and the “perfume value / usability” value was “poor in the perfume value due to its metallic and woody fragrance”. In the case of CC(C)=CCC/C(C)=C/CC[C@@H](C)CCO [(e), (3R)-(6E)-2,3-dihydrofarnesol], the fragrance qualities is reported as “weak fragrance with a not floral but somewhat metallic and balsamic side note” and the “perfume value / usability” value is reported as “poor in the perfume value”.
